Measurements taken from patent US20020164348A1 (priority 2000, published 2002).

T1: Peptide 1
T1 chain: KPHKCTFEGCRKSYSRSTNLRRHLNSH

T2: pJG-poliovirus 3D prey fusion (pJGPolio3D) (poliovirus Mahoney type 1, UniProt P03300 1749-2209)
T2 sequence: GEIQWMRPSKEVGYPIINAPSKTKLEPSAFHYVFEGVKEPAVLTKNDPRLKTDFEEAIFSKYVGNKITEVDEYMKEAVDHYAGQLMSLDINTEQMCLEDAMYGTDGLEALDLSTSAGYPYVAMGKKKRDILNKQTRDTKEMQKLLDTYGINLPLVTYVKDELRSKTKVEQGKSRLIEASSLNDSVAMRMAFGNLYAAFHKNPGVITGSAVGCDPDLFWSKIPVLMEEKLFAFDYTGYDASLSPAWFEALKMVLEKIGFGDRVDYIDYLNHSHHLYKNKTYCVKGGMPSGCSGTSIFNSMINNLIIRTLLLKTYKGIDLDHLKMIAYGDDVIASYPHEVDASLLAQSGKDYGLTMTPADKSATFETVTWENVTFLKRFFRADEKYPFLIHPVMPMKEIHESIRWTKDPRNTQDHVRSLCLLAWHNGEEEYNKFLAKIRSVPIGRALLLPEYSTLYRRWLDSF

B1: poliovirus RNA-dependent RNA polymerase, wild type (Mahoney type 1), purified from E. coli (protein)
chain: T2 sequence
B2: Lex202 vector control (bait vector without a polymerase) (other)
chain: MKALTARQQEVFDLIRDHISQTGMPPTRAEIAQRLGFRSPNAAEEHLKALARKGVIEIVSGASRGIRLLQEEEEGLPLVGRVAAGEPLLAQQHIEGHYQVDPSLFKPNADFLLRVSGMSMKDIGIMDGDLLAVHKTQDVRNGQVVVARIDDEVTVKRLKKQGNKVELLPENSEFKPIVVDLRQQSFTIEGLAVGVIRNGDWL

Experiments:
[1] = molecular target: pJG-human rhinovirus 14 3D prey fusion, human rhinovirus 14, P03303 1720-2179
[2] = molecular target: pJG-poliovirus 3D prey fusion (pJGPolio3D), poliovirus Mahoney type 1, P03300 1749-2209
[3] = molecular target: pJG-human rhinovirus 14 3D prey fusion (human rhinovirus 14) (UniProt P03303)
[4] = molecular target: pJG-poliovirus 3D prey fusion (pJGPolio3D) (poliovirus Mahoney type 1) (UniProt P03300)
[5] = molecular target: T1, Peptide 1
[6] = molecular target: T2, pJG-poliovirus 3D prey fusion …

Row | Molecule | beta-galactosidase activity [1] | beta-galactosidase activity [2] | beta-galactosidase activity [3] | also measured
1 | LexA-poliovirus 3D bait fusion (LexPolio3D) | 963 miller units | 591 miller units |  | 
2 | LexA-enterovirus 71 3D bait fusion (from UniProt P0A7C2 1-202) |  |  | 65 Miller units | beta-galactosidase activity [4]: 23 Miller units
3 | LexA-human rhinovirus 14 3D bait fusion | 632 miller units | 687 miller units |  | 
4 | Lex202 vector control (bait vector without a polymerase) (from UniProt P0A7C2 1-202) |  |  | 35 Miller units | 
5 | B1 |  |  |  | incorporation of labeled UTP on poly(A) with high concentrations of primer [5]: The dramatic stimulation observed in the presence of peptide
6 | B2 |  |  |  | beta-galactosidase activity [6]: 9 Miller units
